## In-gel DMS probing of monomeric and dimeric HIV-1 RNA

Source: Ye et al. 2022 (doi:10.1038/s41594-022-00746-2), supplementary data.

RNA: 5' end of the HIV-1 NL4-3 genome, made in vitro. Positions 1-437 read:
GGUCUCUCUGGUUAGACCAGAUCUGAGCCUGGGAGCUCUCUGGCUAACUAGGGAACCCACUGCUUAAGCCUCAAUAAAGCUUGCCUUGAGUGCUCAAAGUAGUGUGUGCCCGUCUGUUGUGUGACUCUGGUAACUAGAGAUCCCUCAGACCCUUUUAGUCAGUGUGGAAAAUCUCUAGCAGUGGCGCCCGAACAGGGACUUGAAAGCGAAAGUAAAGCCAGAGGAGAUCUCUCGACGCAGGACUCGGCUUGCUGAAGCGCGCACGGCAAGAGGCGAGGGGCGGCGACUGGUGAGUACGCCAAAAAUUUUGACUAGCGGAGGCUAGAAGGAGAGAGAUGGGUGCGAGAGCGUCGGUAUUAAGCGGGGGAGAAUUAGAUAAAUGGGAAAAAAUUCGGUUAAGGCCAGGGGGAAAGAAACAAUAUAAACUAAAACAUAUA

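Mutant RNA libraries with 1G, 2G or 3G starts, with or without cap, were folded at 37 °C for 30 min. High salt was 300 mM KCl and 5 mM MgCl2, low salt 40 mM KCl and 0.1 mM MgCl2; monomer and dimer were parted on a native gel. Each band was probed in the gel with DMS (170 mM, 15 min, 37 °C), with ethanol as control, and sequenced.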

Scale: normalised reactivity, A and C only; low values point to paired or protected bases, higher values to unpaired ones.
One numbering serves 1G, 2G and 3G.
A position is written with its base.

{"position": "A302", "domain": "none", "3G uncapped low-salt dimer": 1.42, "3G uncapped low-salt monomer": 1.27}
{"position": "A303", "domain": "none", "3G uncapped low-salt dimer": 0.09, "3G uncapped low-salt monomer": 0.07}
{"position": "A304", "domain": "none", "3G uncapped low-salt dimer": 0.14, "3G uncapped low-salt monomer": 0.15}
{"position": "A305", "domain": "none", "3G uncapped low-salt dimer": 0.67, "3G uncapped low-salt monomer": 0.75}
{"position": "A311", "domain": "none", "3G uncapped low-salt dimer": 1.31, "3G uncapped low-salt monomer": 1.19}
{"position": "C312", "domain": "SL3", "3G uncapped low-salt dimer": 0.10, "3G uncapped low-salt monomer": 0.12}
{"position": "A314", "domain": "SL3", "3G uncapped low-salt dimer": 0.05, "3G uncapped low-salt monomer": 0.04}
{"position": "C316", "domain": "SL3", "3G uncapped low-salt dimer": 0.07, "3G uncapped low-salt monomer": 0.14}
{"position": "A319", "domain": "SL3", "3G uncapped low-salt dimer": 0.81, "3G uncapped low-salt monomer": 0.87}
{"position": "C322", "domain": "SL3", "3G uncapped low-salt dimer": 0.05, "3G uncapped low-salt monomer": 0.03}
{"position": "A324", "domain": "SL3", "3G uncapped low-salt dimer": 0.08, "3G uncapped low-salt monomer": 0.12}
{"position": "A326", "domain": "none", "3G uncapped low-salt dimer": 0.88, "3G uncapped low-salt monomer": 0.86}
{"position": "A327", "domain": "none", "3G uncapped low-salt dimer": 1.10, "3G uncapped low-salt monomer": 1.00}
{"position": "A330", "domain": "none", "3G uncapped low-salt dimer": 0.88, "3G uncapped low-salt monomer": 0.96}
{"position": "A332", "domain": "none", "3G uncapped low-salt dimer": 0.57, "3G uncapped low-salt monomer": 0.66}
{"position": "A334", "domain": "AUG", "3G uncapped low-salt dimer": 0.39, "3G uncapped low-salt monomer": 0.47}
{"position": "A336", "domain": "AUG", "3G uncapped low-salt dimer": 0.53, "3G uncapped low-salt monomer": 0.73}
{"position": "C343", "domain": "AUG", "3G uncapped low-salt dimer": 0.31, "3G uncapped low-salt monomer": 0.46}
{"position": "A345", "domain": "none", "3G uncapped low-salt dimer": 0.98, "3G uncapped low-salt monomer": 1.27}
{"position": "A347", "domain": "none", "3G uncapped low-salt dimer": 0.12, "3G uncapped low-salt monomer": 0.21}
{"position": "C349", "domain": "none", "3G uncapped low-salt dimer": 0.24, "3G uncapped low-salt monomer": 0.26}
{"position": "C352", "domain": "none", "3G uncapped low-salt dimer": 0.39, "3G uncapped low-salt monomer": 0.36}
{"position": "A356", "domain": "none", "3G uncapped low-salt dimer": 0.95, "3G uncapped low-salt monomer": 0.97}
{"position": "A359", "domain": "none", "3G uncapped low-salt dimer": 0.42, "3G uncapped low-salt monomer": 0.44}
{"position": "A360", "domain": "none", "3G uncapped low-salt dimer": 0.43, "3G uncapped low-salt monomer": 0.41}
{"position": "C362", "domain": "none", "3G uncapped low-salt dimer": 0.32, "3G uncapped low-salt monomer": 0.41}
{"position": "A368", "domain": "none", "3G uncapped low-salt dimer": 0.92, "3G uncapped low-salt monomer": 0.93}
{"position": "A370", "domain": "none", "3G uncapped low-salt dimer": 0.48, "3G uncapped low-salt monomer": 0.52}
{"position": "A371", "domain": "none", "3G uncapped low-salt dimer": 0.99, "3G uncapped low-salt monomer": 0.92}
{"position": "A374", "domain": "none", "3G uncapped low-salt dimer": 0.39, "3G uncapped low-salt monomer": 0.42}
{"position": "A376", "domain": "none", "3G uncapped low-salt dimer": 0.70, "3G uncapped low-salt monomer": 0.71}
{"position": "A378", "domain": "none", "3G uncapped low-salt dimer": 0.24, "3G uncapped low-salt monomer": 0.23}
{"position": "A379", "domain": "none", "3G uncapped low-salt dimer": 0.55, "3G uncapped low-salt monomer": 0.55}
{"position": "A380", "domain": "none", "3G uncapped low-salt dimer": 0.75, "3G uncapped low-salt monomer": 0.79}
{"position": "A385", "domain": "none", "3G uncapped low-salt dimer": 0.58, "3G uncapped low-salt monomer": 0.53}
{"position": "A386", "domain": "none", "3G uncapped low-salt dimer": 1.63, "3G uncapped low-salt monomer": 1.33}
{"position": "A387", "domain": "none", "3G uncapped low-salt dimer": 0.30, "3G uncapped low-salt monomer": 0.22}
{"position": "A388", "domain": "none", "3G uncapped low-salt dimer": 0.09, "3G uncapped low-salt monomer": 0.07}
{"position": "A389", "domain": "none", "3G uncapped low-salt dimer": 0.15, "3G uncapped low-salt monomer": 0.14}
{"position": "A390", "domain": "none", "3G uncapped low-salt dimer": 0.95, "3G uncapped low-salt monomer": 0.93}
{"position": "C393", "domain": "none", "3G uncapped low-salt dimer": 0.53, "3G uncapped low-salt monomer": 0.60}
{"position": "A398", "domain": "none", "3G uncapped low-salt dimer": 0.18, "3G uncapped low-salt monomer": 0.17}